Data taken from patent US6846802B2, “Macrocyclic NS3-serine protease inhibitors of hepatitis C virus comprising N-cyclic P2 moieties” (priority 2000, dated 2005).

Chains of the proteins cited; added tags and fusions are not shown. A line that says so, or that is headed by a name, gives the form on record, which may keep a tag or linker. Residues count along the entry.
UniProt P27958, 1027-1657 limits assumed: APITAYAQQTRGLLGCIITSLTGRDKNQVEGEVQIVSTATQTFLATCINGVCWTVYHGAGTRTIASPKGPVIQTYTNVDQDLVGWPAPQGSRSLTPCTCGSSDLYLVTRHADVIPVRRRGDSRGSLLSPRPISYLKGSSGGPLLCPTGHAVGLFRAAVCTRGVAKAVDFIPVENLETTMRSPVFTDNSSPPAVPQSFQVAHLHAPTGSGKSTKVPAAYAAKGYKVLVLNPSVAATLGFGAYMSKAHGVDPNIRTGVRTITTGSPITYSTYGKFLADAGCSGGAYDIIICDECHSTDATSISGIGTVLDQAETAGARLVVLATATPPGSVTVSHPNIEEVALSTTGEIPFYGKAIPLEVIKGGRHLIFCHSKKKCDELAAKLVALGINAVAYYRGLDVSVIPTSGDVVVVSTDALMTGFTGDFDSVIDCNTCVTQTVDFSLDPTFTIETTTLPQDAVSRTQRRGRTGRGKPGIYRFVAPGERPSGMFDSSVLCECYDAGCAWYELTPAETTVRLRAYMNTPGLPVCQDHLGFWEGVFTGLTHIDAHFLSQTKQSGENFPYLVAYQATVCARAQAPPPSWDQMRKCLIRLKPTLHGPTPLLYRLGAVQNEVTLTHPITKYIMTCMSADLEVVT
UniProt P27958, 1658-1711 partner limits assumed: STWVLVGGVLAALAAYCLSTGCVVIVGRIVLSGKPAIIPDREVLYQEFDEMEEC
UniProt P26663, 1029-1207 with tags or gaps I1043K limits assumed: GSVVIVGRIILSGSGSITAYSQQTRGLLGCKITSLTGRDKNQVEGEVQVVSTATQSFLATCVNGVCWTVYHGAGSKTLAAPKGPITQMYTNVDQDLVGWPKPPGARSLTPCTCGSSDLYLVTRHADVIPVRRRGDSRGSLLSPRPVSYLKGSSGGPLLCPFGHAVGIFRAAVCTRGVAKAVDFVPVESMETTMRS

Tests used:
[1] = target: Recombinant heterodimeric HCV NS3/NS4A protease (strain 1a) (Hepatitis C virus genotype 1a, UniProt P27958); test: HCV protease continuous (spectrophotometric) assay; settings: pH 6.5
Procedure: Spectrophotometric assays for the HCV serine protease was performed on the inventive compounds by following the procedure described by R. Zhang et al, Analytical Biochemistry, 270 (1999) 268-275, the disclosure of which is incorporated herein by reference. The assay based on the proteolysis of chromogenic ester substrates is suitable for the continuous monitoring of HCV NS3 protease activity. The substrates were derived from the P side of the NS5A-NS5B junction sequence (Ac-DTEDVVX(Nva), where X=A or P) whose C-terminal carboxyl groups were esterified with one of four different chromophoric alcohols (3- or 4-nitrophenol, 7-hydroxy-4-methyl-coumarin, or 4-phenylazophenol). Presented below are the synthesis, characterization and application of these novel spectrophotometric ester substrates to high throughput screening and detailed kinetic evaluation of HCV NS3 protease inhibitors.
Recombinant heterodimeric HCV NS3/NS4A protease (strain 1a) was prepared by using the procedures published previously (D. L. Sali et al, Biochemistry, 37 (1998) 3392-3401). Protein concentrations were determined by the Biorad dye method using recombinant HCV protease standards previously quantified by amino acid analysis. Prior to assay initiation, the enzyme storage buffer (50 mM sodium phosphate pH 8.0, 300 mM NaCl, 10% glycerol, 0.05% lauryl maltoside and 10 mM DTT) was exchanged for the assay buffer (25 mM MOPS pH 6.5, 300 mM NaCl, 10% glycerol, 0.05% lauryl maltoside, 5 μM EDTA and 5 μM DTT) utilizing a Biorad Bio-Spin P-6 prepacked column.
HCV protease assays were performed at 30° C. using a 200 μl reaction mix in a 96-well microtiter plate. Assay buffer conditions (25 mM MOPS pH 6.5, 300 mM NaCl, 10% glycerol, 0.05% lauryl maltoside, 5 μM EDTA and 5 μM DTT) were optimized for the NS3/NS4A heterodimer (D. L. Sali et al, ibid.)). […] Fifty μls of prewarmed protease (12 nM, 30° C.) in assay buffer, was then used to initiate the reaction (final volume 200 μl).The plates were monitored over the length of the assay (60 minutes) for change in absorbance at the appropriate wavelength (340 nm for 3-Np and HMC, 370 nm for PAP, and 400 nm for 4-Np) using a Spectromax Plus microtiter plate reader equipped with a monochrometer (acceptable results can be obtained with plate readers that utilize cutoff filters). Proteolytic cleavage of the ester linkage between the Nva and the chromophore was monitored at the appropriate wavelength against a no enzyme blank as a control for non-enzymatic hydrolysis. […] Initial velocities were determined using linear regression and kinetic constants were obtained by fitting the data to the Michaelis-Menten equation using non-linear regression analysis (Mac Curve Fit 1.1, K. Raner). […]

[2] = target: HCV serine protease (subtype 1b, 1bNS4A21-32GS-GS NS3-81 I17K) in HeLa/Huh7 cells (Hepatitis C virus genotype 1b, UniProt P26663, I1043K); test: HCV serine protease cell-based trans-cleavage assay (BFP-5A/5B-GFP reporter cleavage, Western blot)
Procedure: The cell bioassays for the HCV serine protease was performed on the inventive compounds by following the procedure described by S. Agrawal et al, “Development and Characterization of Hepatitis C Virus Serine Protease Cell-based Trans-Cleavage Assay”, Hepatology Supplement to Volume 30 (No. 4, Part 2, October 1999), Abstract No. 615 (Proceedings of AASLD 50th Annual Meeting, Dallas, Tex., Nov. 5-9, 1999), the disclosure of which is incorporated herein by reference. The assay was performed in HeLa/Huh7 cells that were co-transfected with a plasmid that expresses a reporter protein substrate containing the NS5A/5B cleavage recognition sequence and an 1BNS4A21-32 GS-GSNS3-81 I17K expression vector and YFPn1 as a internal standard protein to control cytotoxicity. Protease activity was measured by SDS-PAGE of total cell lysates followed by Western blot detection using a monoclonal antibody directed against the reporter substrate. Quantitation of substrate cleavage was performed by scanning the immunoblot on the phosphoimager.
The reporter gene that expresses the substrate encodes a fusion protein comprised of an N′ terminal blue fluorescent protein (BFP) domain and a C′ terminal green fluorescent protein (GFP) domain, separated by a 25 amino acids derived from the NS5A/5B cleavage recognition sequence. […]

| Compound | Ki [1] [nM] | Cell-Based Assay [2] [µM] |
| --- | --- | --- |
| CCC[C@H](NC(=O)[C@@H]1C[C@@H]2CN1C(=O)[C@H](C1CCCCC1)NC(=O)Cc1cccc(c1)OCCCO2)C(=O)C(=O)NCC(=O)N[C@H](C(=O)N(C)C)c1ccccc1 | 1 to 100 | 2 |
| CCC[C@@H](NC(=O)[C@@H]1C[C@@H]2CN1C(=O)[C@H](C1CCCCC1)NC(=O)Cc1cccc(c1)OCCCO2)C(=O)C(=O)NCC(=O)N[C@H](C(=O)N(C)C)c1ccccc1 | 101 to 100000 |  |
| CCCC[C@H](NC(=O)[C@@H]1C[C@@H]2CN1C(=O)[C@H](C(C)(C)C)NC(=O)Cc1ccccc1OCCCCO2)C(=O)C(=O)NCC(=O)N[C@H](C(=O)N(C)C)c1ccccc1 | 101 to 100000 |  |
| CCC[C@H](NC(=O)[C@@H]1C[C@@H]2CN1C(=O)[C@H](C1CCCCC1)NC(=O)Cc1cccc(c1)OCCO2)C(=O)C(=O)NCC(=O)N[C@H](C(=O)N(C)C)c1ccccc1 | 1 to 100 | 7 |
